Results of unrelated studies side by side (data: NIAID ChemDB).

All rows: growth or infection tests; species: Mycobacterium tuberculosis

Blank or dashed fields: not listed here. ECn: concentration that inhibits the pathogen or its effect by n%. Lines come from different laboratories, so protocols vary. Two numbers with a dash give a range or band. MIC bound comes from a single tested concentration. MIC50, MIC90 and the like: level of inhibition, or share of isolates inhibited. Percent inhibition refers to the dose given; in toxicity tests it is the harm to the cells.

SMILES | setting | mutations | method | endpoint | strain | cell line | tested at | result
Cc1ccc(-n2c(=S)oc3ccc(Br)cc3c2=S)cc1 | 21 d | - | - | MIC | My 331/88 | - | - | 1 µM
C/C(=N\NC(=O)c1ccncc1)c1ccc(F)cc1 | - | - | - | MIC | H37Rv (rifampin-resistant) | - | - | 4 µg/mL
CO/N=C(\C(=O)N[C@@H]1C(=O)N2C(C(=O)O)=C(CSc3nnnn3CCNS(=O)(=O)O)CS[C@H]12)c1csc(N)n1 | - | - | BACTEC | EC50 | 8 strains | - | - | >100 µg/mL
CCCc1c2c([nH]c(=O)c1C)C(=O)c1[nH]c(=O)c(C)c(CCC)c1C2=O | - | - | resazurin / fluorescence | MIC90 | H37Rv | - | - | 0.1 µg/mL
COc1ccc2oc(=O)n(-c3ccc(C)cc3)c(=S)c2c1 | 14 d | - | - | MIC | My 331/88 | - | - | 16 µM
NC1=C(O)/C(=N/NS(=O)(=O)c2ccccc2)C(c2ccc3c(c2)OCO3)O1 | - | - | BACTEC | inhibition | H37Rv | - | 12.5 µg/mL | 4%
COc1cc(OC)c2cc([N+](=O)[O-])c3ccc(=O)oc3c2c1 | - | - | resazurin | MIC | MMDO | - | - | 50 µg/mL
COc1cc(/C=N/c2nncs2)ccc1O | - | - | BACTEC | MIC bound | H37Rv | - | - | >12.5 µg/mL
COC(=O)c1cc2ccccc2nc1C1CCCCC1 | - | - | - | inhibition | H37Rv | - | 6.25 µg/mL | 35%
NNC(=O)c1ccncc1 | - | - | - | MIC | 84396 | - | - | ≥0.2 µg/mL
CC1=C(C(=O)Nc2ccccc2C)C(c2ccc(N(C)C)cc2)C(C(=O)Nc2ccccc2C)=C(C)N1 | - | - | - | MIC | H37Rv | - | - | >12.5 µg/mL
CN[C@@H]1[C@H](O[C@H]2[C@H](O[C@H]3[C@H](O)[C@@H](O)[C@H](N=C(N)N)[C@@H](O)[C@@H]3N=C(N)N)O[C@@H](C)[C@]2(O)C=O)O[C@@H](CO)[C@H](O)[C@H]1O | - | Cycloserine-resistant | resazurin / fluorescence | MIC90 | H37Rv | - | - | 0.41 µg/mL
O=C(N/N=C/c1cccc(F)c1)c1ccncc1 | inside macrophages | - | colony count | EC90 | Erdman | Macrophages | - | 0.011 µg/mL
CC1CCCN(c2ccc([N+](=O)[O-])s2)C1 | - | - | resazurin | MIC | ss18b | - | - | 6.25 µg/mL
O=C(O)CCCCCCCCCCCI | - | - | BACTEC | inhibition | H37Rv | - | 12.5 µg/mL | 7%
CC1(C)C2CCC(CN3C(=O)c4ccccc4C3=O)C1C2 | - | - | - | MIC | H37Rv | - | - | ≤20 µg/mL
CO[C@H]1/C=C/O[C@@]2(C)Oc3c(C)c(O)c4c(O)c(c5c(c4c3C2=O)NC2(CCN(CC(C)C)CC2)N=5)=NC(=O)/C(C)=C\C=C\[C@H](C)[C@H](O)[C@@H](C)[C@@H](O)[C@@H](C)[C@H](OC(C)=O)[C@@H]1C | - | - | - | MIC50 | 6 strains (rifampicin-resistant) | - | - | 12.5 µg/mL
CC(=O)c1cc([N+](=O)[O-])c(N2CCC(C)CC2)s1 | - | - | resazurin | MIC | H37Rv | - | - | >100 µg/mL
CCCCCCCCCN1C(=O)CC(C)C1=O | - | - | - | MIC | H37Rv | - | - | ≤20 µg/mL
CC1CCN(c2sc([N+](=O)[O-])cc2[N+](=O)[O-])CC1 | - | - | resazurin | MIC | ss18b | - | - | 6.25 µg/mL
COc1cccc(C2C(C(=O)Nc3ccc([N+](=O)[O-])cc3)=C(C)NC(C)=C2C(=O)Nc2ccc([N+](=O)[O-])cc2)c1 | - | - | - | MIC | H37Rv | - | - | >6.25 µg/mL
CCOC(=O)Cc1cc(C2CCCC2)nc2c(C3CCCC3)cccc12 | - | - | - | MIC | H37Rv | - | - | 4 µg/mL
COC(=O)C1=CCC2C(C(=O)O)=COC(OC3OC(CO)C(O)C(O)C3O)C12 | - | - | BACTEC | MIC bound | H37Rv | - | - | >12.5 µg/mL
CC(C)[C@H]1CO[C@]23CC[C@H](N(Cc4ccc(C(F)(F)F)cc4)CC4CCCN(C(=O)OC(C)(C)C)C4)C[C@H]2CCC(=O)N13 | - | - | resazurin | MIC | - | - | - | <0.5 µM
COC(=O)c1cc(C2C3CC4CC(C3)CC2C4)c2ccccc2n1 | - | - | - | inhibition | H37Rv | - | 6.25 µg/mL | 34%
CN1CCN(c2cc3c(cc2F)c(=O)c(C(=O)O)cn3-c2ccc(F)cc2)CC1 | - | - | BACTEC | inhibition | 12 strains | - | 100 µg/mL | 100%
N/N=C1\CCC(C(=O)NN)C1 | - | - | BACTEC | MIC | H37Rv | - | - | ≥12.5 µg/mL
CO[C@H]1/C=C/O[C@@]2(C)Oc3c(C)c(O)c4c(=O)c(c5oc6cc(N7CCN(CC(C)C)CC7)cc(=O)c6nc5c4c3=C2O)NC(=O)/C(C)=C\C=C\[C@H](C)[C@H](O)[C@@H](C)[C@@H](O)[C@@H](C)[C@H](OC(C)=O)[C@@H]1C | - | - | - | MBC | 29 (rifampin-resistant) | - | - | 0.025 µg/mL
O=c1oc2ccc(Br)cc2c(=S)n1-c1ccc(Cl)c(Cl)c1 | 21 d | - | - | MIC | My 331/88 | - | - | 4 µM
C[N+](C)(C)CC(=O)N/N=C/c1cccc2ccccc12.[Cl-] | - | - | BACTEC | MIC | H37Rv | - | - | ≥12.5 µg/mL
CC(C)[C@H]1CO[C@]23CC[C@H](N(Cc4ccc(C(F)(F)F)cc4)CC4CC4)C[C@H]2CCC(=O)N13 | - | - | resazurin | MIC | - | - | - | <0.5 µM
Clc1ccc(C2NC(c3ccccc3)c3c(ccc4ccccc34)O2)cc1Cl | - | - | BACTEC | MIC bound | H37Rv | - | - | >12.5 µg/mL
CC1(C)S[C@@H]2[C@H](NC(=O)[C@H](N)c3ccccc3)C(=O)N2[C@H]1C(=O)O | - | - | - | MIC | 1560 | - | - | >92 µM
CC1=C(C(=O)Nc2ccccc2F)C(c2cccc(Cl)c2)C(C(=O)Nc2ccccc2F)=C(C)N1 | - | - | - | MIC | H37Rv | - | - | >6.25 µg/mL
Cc1ccc2oc(=O)n(-c3ccc(C(F)(F)F)cc3)c(=S)c2c1 | 21 d | - | - | MIC | My 331/88 | - | - | 8 µM
NCc1ccccc1CC(=O)N[C@@H]1C(=O)N2C(C(=O)O)=C(CSc3nnnn3CC(=O)O)CS[C@H]12 | - | - | BACTEC | inhibition | 8 strains | - | 100 µg/mL | 100%
CC(C)[C@H]1CO[C@]23CC[C@H](NCc4cc(C(F)(F)F)nc5c(F)cccc45)C[C@H]2CCC(=O)N13 | - | - | resazurin | MIC | - | - | - | 0.5–5 µM
COc1ccc2c(c1)c(=O)c1c(NCCN(C)C)ccc3nnn2c31 | - | - | BACTEC | MIC | H37Rv | - | - | 6.25 µg/mL
CC1=C(C(=O)Nc2ccc(F)cc2)C(c2ccccc2[N+](=O)[O-])C(C(=O)Nc2ccc(F)cc2)=C(C)N1 | - | - | - | MIC | H37Rv | - | - | >6.25 µg/mL
CC1CCN(c2ccc([N+](=O)[O-])s2)CC1 | - | - | resazurin | MIC | H37Rv | - | - | 6.25 µg/mL
CC1(C)C(=O)N(O)C(C)(C)N1N=O | - | - | BACTEC | MIC bound | H37Rv | - | - | >12.5 µg/mL
O=C(CCN1C(=O)CCC1=O)Nc1ccc(N2CCCCC2)cc1 | - | - | - | MIC | H37Rv | - | - | ≤20 µg/mL
O=C1C2C3CCC(O3)C2C(=O)N1CSc1nc2ccccc2s1 | - | - | BACTEC | inhibition | H37Rv | - | 12.5 µg/mL | -12%
O=c1oc2ccc(F)cc2c(=S)n1-c1ccc(Cl)cc1 | 21 d | - | - | MIC | My 331/88 | - | - | 1 µM
CC(C)[C@H]1CO[C@]23CC[C@H](N(Cc4ccc(C(F)(F)F)cc4)C4CN(CCCC(F)(F)F)C4)C[C@H]2CCC(=O)N13 | - | - | resazurin | MIC | - | - | - | <0.5 µM
CCCCCCCCN1C(=O)C=C(C)C1=O | - | - | - | MIC | Clinical isolate (isoniazid-resistant) | - | - | ≤20 µg/mL
NC[C@H]1O[C@H](O[C@H]2[C@H](O)[C@@H](O[C@H]3O[C@H](CO)[C@@H](O)[C@H](N)[C@H]3O)[C@H](N)C[C@@H]2N)[C@H](O)[C@@H](O)[C@@H]1O | - | - | resazurin / fluorescence | MIC90 | H37Rv | - | - | 0.65 µg/mL
COC(=O)c1c(C(N)=O)c(C)n(NC(N)=O)c1C | - | - | BACTEC | inhibition | H37Rv | - | 12.5 µg/mL | 0%
O=C(O)c1cc(C2CCCC2)nc2ccccc12 | - | - | - | inhibition | H37Rv | - | 6.25 µg/mL | 4%
O=S(=O)(O)c1cccc(N=Nc2ccc(N=Nc3ccc(Nc4ccccc4)c4c(S(=O)(=O)O)cccc34)c3ccccc23)c1 | - | - | BACTEC | MIC | H37Rv | - | - | ≥128 µg/mL
Cc1ccc2oc(=O)n(-c3ccc(F)cc3)c(=S)c2c1 | 14 d | - | - | MIC | My 331/88 | - | - | 4 µM
CC(NNC(=O)c1cc[n+]([B]C#N)cc1)c1ccccc1 | - | - | - | MIC | H37Rv | - | - | 12.5 µg/mL
Cc1cn([C@@H]2C[C@@H](N=C(N)NO)[C@H](CO)O2)c(=O)[nH]c1=O | - | - | resazurin | MIC bound | H37Rv | - | - | >6.25 µg/mL
CCOC(=O)Cc1cc(C2CCCCC2)nc2c(C3CCCCC3)cccc12 | - | - | - | inhibition | H37Rv | - | 6.25 µg/mL | 99%
CC(NNC(=O)c1ccncc1)c1cccc(C(F)(F)F)c1 | - | - | - | MIC | Thiacetazone-resistant | - | - | >50 µg/mL
O=C(O)c1cc(C2CCCCC2)c2ccccc2n1 | - | - | - | inhibition | H37Rv | - | 6.25 µg/mL | 9%
CCCCCCCCCCCCN1C(=O)[N+](C)(C)N=C1[O-] | - | - | resazurin | inhibition | H37Rv | - | 6.25 µg/mL | 81%
CCCCCCCCCN1C(=O)CC(NCCCCCCCC)C1=O | - | - | - | MIC | Clinical isolate (isoniazid-resistant) | - | - | ≤20 µg/mL
CC(C)[C@H]1CO[C@]23CC[C@H](N(Cc4ccc(C(F)(F)F)cc4)CC4COC4)C[C@H]2CCC(=O)N13 | - | - | resazurin | MIC | - | - | - | <0.5 µM
CCCCCCCCCN1C(=O)CC(NCCCCCCC)C1=O | - | - | - | MIC | Clinical isolate (isoniazid-resistant) | - | - | ≤20 µg/mL
CC1=CC(C)=NC2NNC(=O)C12 | - | - | BACTEC | MIC bound | H37Rv | - | - | >12.5 µg/mL
O=C(N/N=C/c1cccc(C(F)(F)F)c1)c1ccncc1 | - | - | - | MIC | H37Rv | - | - | 0.1 µg/mL
CC(C)[C@H]1CO[C@]23CC[C@H](N(Cc4ccc(C(F)(F)F)cc4)CC4CCCCN4)C[C@H]2CCC(=O)N13 | - | - | resazurin | MIC | - | - | - | <0.5 µM
N#CC1CC2OC1CC(=O)C2(O)c1occc(=O)c1O | - | - | BACTEC | inhibition | H37Rv | - | 12.5 µg/mL | 26%
CC1=C(C(=O)Nc2ccccc2Cl)C(c2ccc(Cl)cc2Cl)C(C(=O)Nc2ccccc2Cl)=C(C)N1 | - | - | - | MIC | H37Rv | - | - | >12.5 µg/mL
O=C(N/N=C/c1ccccc1F)c1ccncc1 | - | - | - | MIC | Ethionamide-resistant | - | - | >1.6 µg/mL
COC(=O)C1=C(C)N(c2cccc(C)c2)C(C)=C(C(=O)OC)C1c1ccc(O)c(OC)c1 | - | - | - | MIC | H37Rv | - | - | >6.25 µg/mL
CCCCCCCCCN1C(=O)CC(NCCN(CCCC)CCCC)C1=O | - | - | - | MIC | Clinical isolate (isoniazid-resistant) | - | - | ≤20 µg/mL
O=C1NC(=O)C2C3C=CC(C12)C1C2C(=O)NC(=O)C2C31 | - | - | BACTEC | MIC bound | H37Rv | - | - | >12.5 µg/mL
CCCCCCCCNC1(C)CC(=O)N(CCCCCCCC)C1=O | - | - | - | MIC | Clinical isolate (isoniazid-resistant) | - | - | ≤20 µg/mL
CCC[CH2][Sn]1([CH2]CCC)[O]C(=O)CN=C(C)c2ccccc2[O]1 | - | - | - | MIC | TAC-R | - | - | 6.3 µg/mL
O=c1oc2ccc(F)cc2c(=S)n1-c1ccc(C(F)(F)F)cc1 | 14 d | - | - | MIC | My 331/88 | - | - | 2 µM
COc1cc2c3c(c1OC)-c1cc4c(cc1CC3N(C=O)CC2)OCO4 | - | - | resazurin | MIC | H37RvIr | - | - | >50 µg/mL
C[C@@H](O)[C@H]1C(=O)N2C(C(=O)O)=C(SCCN=CN)C[C@H]12 | - | - | BACTEC | EC50 | 9 strains | - | - | <100 µg/mL
CO[C@H]1/C=C/O[C@@]2(C)Oc3c(C)c(O)c4c(O)c(c(/C=N/N5CCN(C)CC5)c(O)c4c3C2=O)NC(=O)/C(C)=C\C=C\[C@H](C)[C@H](O)[C@@H](C)[C@@H](O)[C@@H](C)[C@H](OC(C)=O)[C@@H]1C | - | - | - | MIC | 3897 | - | - | ≥2 µg/mL
CO[C@H]1/C=C/O[C@@]2(C)Oc3c(C)c(O)c4c(O)c(c(/C=N/N5CCN(C/C=C/c6ccccc6)CC5)c(O)c4c3C2=O)NC(=O)/C(C)=C\C=C\[C@H](C)[C@H](O)[C@@H](C)[C@@H](O)[C@@H](C)[C@H](OC(C)=O)[C@@H]1C | - | - | - | MBC | 3147 (rifampin-sensitive) | - | - | 0.05 µg/mL
CCOC(=O)Cn1/c(=N/N=C(\C)c2ccc([N+](=O)[O-])o2)sc2cc(Cl)ccc21 | - | - | BACTEC | MIC bound | H37Rv | - | - | >12.5 µg/mL
O=C(O)C1=C(CSc2nnnn2CS(=O)(=O)O)CS[C@@H]2[C@H](NC(=O)C(O)c3ccccc3)C(=O)N12 | - | - | BACTEC | EC50 | 8 strains | - | - | >100 µg/mL
COc1ccc(-c2cc(C(O)C3CCCCN3)c3ccccc3n2)cc1 | - | - | resazurin | inhibition | H37Rv | - | 6.25 µg/mL | 25%
CCCCCCCCN1C(=O)CC(C)(SCC(N)C(=O)O)C1=O | - | - | - | MIC | H37Rv | - | - | ≤20 µg/mL